Test results published in article PMC9733292, “A bispecific, crosslinking lectibody activates cytotoxic T cells and induces cancer cell death” (2022).

Biological target: Shiga toxin 1 B-subunit K9AzK (Shigella dysenteriae)

Shiga toxin 1 B-subunit K9AzK (natural protein)
stoichiometry N: 5
